Reference: PMC3726044 (Biochemistry, 2013)

How the values were obtained:
[1] = system: C[C@@H](C(=O)SCCNC(=O)CCNC(=O)[C@H](O)C(C)(C)COP(=O)(O)OP(=O)(O)OC[C@H]1O[C@@H](n2cnc3c(N)ncnc32)[C@H](O)[C@@H]1OP(=O)(O)O)[C@H]1CC[C@H]2C(=O)CCC[C@]12C; experiment: purified protein; conditions: pH 8.5; 25.0 °C
[2] = system: C[C@H](C(=O)SCCNC(=O)CCNC(=O)[C@H](O)C(C)(C)COP(=O)(O)OP(=O)(O)OC[C@H]1O[C@@H](n2cnc3c(N)ncnc32)[C@H](O)[C@@H]1OP(=O)(O)O)[C@H]1CC[C@H]2[C@@H]3CCC4=CC(=O)CC[C@]4(C)[C@H]3CC[C@]12C; experiment: purified protein; conditions: pH 8.5; 25.0 °C

ChsE1-ChsE2 (Mycobacterium tuberculosis H37Rv)
Km [1]: 86 ± 7 µM | kcat/Km [1]: 980 M⁻¹ s⁻¹ | Km [2]: 5.3 ± 0.9 µM | kcat/Km [2]: 250000 M⁻¹ s⁻¹
